The entries are a selection whose mix differs from that of the whole data set. Some structures show a salt or complex split into parts, the way the source records it. The source made the active and inactive calls. The call rests on the fitted dose curve; in most records, active means well fitted inhibition curve with a large enough effect; inconclusive means small, poorly fitted or top-dose-only effect, or effect the other way; inactive means flat fitted curve, though single readings scatter.
Target: ATP-dependent 6-phosphofructokinase (Trypanosoma brucei brucei) (UniProt O15648)
Assay: qHTS Assay to Find Inhibitors of T. brucei phosphofructokinase; further: nearly all actives have a fitted effect of over 60% in size
Conditions: T. brucei PFK, ADP-Glo luminescence; at 57.5 µM (top of the series)
Excerpt: NIH Molecular Libraries Probe Production Network [MLPCN] NIH Chemical Genomics Center [NCGC] Grant: 1 R03 MH092153-01 PI Name: Malcolm Walkinshaw, University of Edinburgh NCGC Assay Overview: Various species of the protozoan family Trypanosomatidae are responsible for a range of serious human diseases in tropical and subtropical areas of the world. […] Many of the disorders caused by trypanosomatids are fatal if left untreated, but most currently used drugs are inefficient and toxic. […] Oxidative metabolism involving the mitochondrial tricarboxylic acid cycle and oxidative phosphorylation are repressed in these parasites, and recent RNA interference (RNAi) experiments have shown that even partial depletion of certain individual glycolytic enzymes can lead to the death of cultured parasites. One such glycolytic enzyme, phosphofructokinase (PFK), catalyzes the formation of fructose-1,6-bisphosphate (F1,6BP) and ADP from fructose-6-phosphate (F6P) and ATP, and in many metabolic circumstances makes an important contribution to the control of flux through the glycolytic pathway. As a specific glycolytic target, PFK is particularly attractive as it catalyzes the first irreversible step in glycolysis, and structural and kinetic studies have shown very substantial and essential differences from corresponding host enzymes, allowing for the discovery of parasite-selective inhibitors. The goal of this screen is to find small-molecule inhibitors of T. brucei PFK using a biochemical assay that measures PFK activity as a function of ADP production. A luminescence-based assay for T. brucei PFK activity has been developed which uses luciferase to detect production of ADP. Traditional luciferase-based nucleotide detection reagents rely on ATP production as a direct substrate for the luciferase reaction; however, PFK catalyzes the transfer of a phosphate from ATP to F6P, resulting in the net depletion of ATP. To directly measure the ADP product of the PFK reaction, we used the ADP-Glo detection kit (Promega), which utilizes two separate reactions to 1) deplete all remaining uncatalyzed ATP and 2) convert all remaining ADP to ATP, which is then detected through a traditional luciferase-coupled reaction. Compounds were screened as a concentration-titration series that ranged from 57 uM to 0.7 nM.
NCGC Assay Protocol Summary: NCGC Assay Protocol Summary: Substrate buffer was dispensed into white, solid 1536-well plates at 3uL/well in 0.1M triethanolamine (TEA) buffer, pH 8.0, containing final concentrations of 5 mM MgCl2, 0.01% Tween20, 0.5 mM fructose-6-phosphate (F6P) and 0.1mM ATP. Then, 23 nL of compounds or DMSO were delivered to each well using a pin tool. One uL T. brucei PFK (0.1M TEA, 0.01% Tween20, 0.1% bovine serum albumin (BSA) and 1.25nM PFK, final concentrations) was then dispensed, and plates were incubated at room temperature for 45 min. The luminescent detection reagent, ADP-Glo (Promega), was then added in two steps: the first reagent, ADP-Glo (which converts remaining uncatalyzed ATP), was added at 2.5uL/well and incubated for ten minutes at room temperature, and the second component, Kinase Detection reagent (which converts ADP to ATP as a substrate for luciferase-based luminescence), was added immediately after at 5uL/well, followed by one final ten minute room temperature incubation. The plates were measured on a ViewLux plate reader for luminescent signal using a clear filter with a one second exposure. The %Activity was determined from the corrected luminescence values. As no specific T. brucei PFK inhibitors have been identified in the literature, 1x (1.25nM) and 0x PFK enzyme controls (untreated) were included to normalize %Activity of identified inhibitors; 0x enzyme values corresponded to 100%Activity (full inhibition), while 1x PFK enzyme values were used to normalize 0%Activity (no inhibition). Concentration-response curves were fitted to the signals arising from the resulting luminescence. […]

By UniProt entry, the sequences of proteins in these tests, tags left out.
UniProt O15648, whole entry: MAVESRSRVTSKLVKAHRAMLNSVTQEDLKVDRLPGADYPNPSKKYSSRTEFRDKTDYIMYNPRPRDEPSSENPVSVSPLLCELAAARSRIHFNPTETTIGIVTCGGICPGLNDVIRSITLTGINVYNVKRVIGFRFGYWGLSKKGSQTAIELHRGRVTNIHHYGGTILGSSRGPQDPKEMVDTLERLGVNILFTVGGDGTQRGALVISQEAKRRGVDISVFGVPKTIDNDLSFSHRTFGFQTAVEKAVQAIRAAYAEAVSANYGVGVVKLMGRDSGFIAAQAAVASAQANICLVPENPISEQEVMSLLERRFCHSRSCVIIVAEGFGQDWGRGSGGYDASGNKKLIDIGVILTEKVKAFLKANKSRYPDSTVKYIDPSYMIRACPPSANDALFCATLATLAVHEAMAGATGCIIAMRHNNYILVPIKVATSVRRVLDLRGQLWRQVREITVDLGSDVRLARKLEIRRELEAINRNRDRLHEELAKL

SMILES | activity, negative = inhibition
COc1cc(OC)cc(C(=O)NCC2(N3CCCCC3)CCCCC2)c1 | inactive: -0.0501%
Cc1ccc(C(=O)NCC2(N3CCCCC3)CCCCC2)o1 | inactive: -2.11%
Fc1ccccc1NC1CCN(Cc2ccccc2)CC1 | inactive: -3.1%
CCN1CCC(Nc2cccc(F)c2)CC1 | inactive: -6.59%
O=C(NCC1(N2CCCCC2)CCCCC1)c1ccco1 | inactive: -2.69%
CN(C)c1ccc(C(=O)NCC2(N3CCCCC3)CCCCC2)cc1 | inactive: -0.971%
CCOc1ncccc1C(=O)NCC1(N2CCOCC2)CCCCC1 | inactive: 1.48%
CN1CCC(Nc2ccc(F)c(Cl)c2)CC1 | inactive: -22.6%
CC(C)(C)OC(=O)N1CCC(Nc2ccccc2)CC1 | inactive: -0.987%
O=C(O)C1(Nc2ccccc2)CCN(Cc2ccccc2)CC1 | inactive: -2.1%
CCCOc1ccc(C(=O)NCC2(N(C)C)CCCCC2)cc1 | inactive: -6.98%
COc1cccc(C(=O)N(c2cc(C)cc(C)c2)C2CCN(C(=O)OC(C)(C)C)CC2)c1 | inactive: -5.73%
COc1cc(OC)cc(C(=O)NCC2(N3CCOCC3)CCCCC2)c1 | inactive: -2.4%
CCC(CO)(C(=O)OC1CN2CCC1CC2)c1ccccc1 (stereo not drawn) | inactive: 3.01%
CN1CCC(Nc2ccc(Cl)cc2)CC1 | inactive: 2.27%
CCCOc1ccc(C)cc1CN(CCCl)CCCl | inactive: 7.55%
COc1cc(C(=O)NCC2(N3CCOCC3)CCCCC2)cc(OC)c1C | inactive: -6.58%
O=C(NCC1(N2CCOCC2)CCCCC1)c1cc(Br)ccc1Cl | inactive: -6.24%
COc1ccc(C(=O)NCC2(N3CCOCC3)CCCCC2)cc1OC | inactive: -8.39%
CCOC(=O)N1CCC(Nc2ccc(C)cc2)CC1 | inactive: 3.58%
N/C(=N\O)c1c(N)no[n+]1[O-] | inactive: -0.711%
O=C(OC1CN2CCC1CC2)C1c2ccccc2C=Cc2ccccc21 (stereo not drawn) | inactive: 0.708%
CCc1cc(C(=O)NCC2(N3CCCCC3)CCCCC2)sc1C | inactive: -0.562%
O=C(O)c1cccc(Nc2c([N+](=O)[O-])cc([N+](=O)[O-])cc2[N+](=O)[O-])c1 | inactive: -13.2%
N#Cc1ccc(C(=O)NCC2(N3CCCCC3)CCCCC2)cc1 | inactive: 2.31%

SMILES | activity, negative = inhibition
CC(C)(C)OC(=O)N1CCC(N(C(=O)c2ccccc2)c2ccc(Cl)cc2)CC1 | inactive: -1.18%
CCOC(=O)C(CC)C1=NC(C)(C)Cc2ccccc21.O=[N+]([O-])c1cc([N+](=O)[O-])c(O)c([N+](=O)[O-])c1 (stereo not drawn) | inactive: 0.455%
CN(C)C1(CNC(=O)c2cccc(C#N)c2)CCCCC1 | inactive: 1.22%
c1ccc(CN2CCC(Nc3ccccc3)CC2)cc1 | inactive: -2.13%
CCCN1CCC(Nc2cc(OC)cc(OC)c2)CC1 | inactive: -9.55%
O=C(NCC1(N2CCCCC2)CCCCC1)c1ccc(OC(F)F)cc1 | inactive: 0.444%
CCN1CCC(Nc2ccc(Cl)cc2)CC1 | inactive: -2.98%
N#CC1(Nc2ccccc2)CCN(CCc2ccccc2)CC1 | inactive: 5.97%
O=C(NCC1(N2CCCCC2)CCCCC1)c1cccc([N+](=O)[O-])c1 | inactive: 3.69%
CSc1ccc(C(=O)NCC2(N3CCOCC3)CCCCC2)cc1 | inactive: -0.64%
O=[N+]([O-])c1cc([N+](=O)[O-])c(NCC2CCS(=O)(=O)C2)c([N+](=O)[O-])c1 (stereo not drawn) | inactive: 12.8%
O=C(NCC1(N2CCCCC2)CCCCC1)c1cccc(C(F)(F)F)c1 | inactive: 3.28%
O=C(NCC1(N2CCOCC2)CCCCC1)c1cc(=O)[nH]c2ccccc12 | inactive: -1.47%
COc1cc(C(=O)NCC2(N3CCCCC3)CCCCC2)ccc1OC(F)F | inactive: 2.61%
CC(C)c1ccc(C(=O)NCC2(N3CCOCC3)CCCCC2)cc1 | inactive: 24.7%
COc1ccc(NC2CCN(C(=O)OC(C)(C)C)CC2)cc1 | inactive: -1.73%
CC(C)c1ccc(NC2CCN(C(=O)OC(C)(C)C)CC2)cc1 | inactive: -1.91%
COc1ccc(CN(CCCl)CCCl)cc1Cl | inactive: -0.855%
CN(C)c1cccc(C(=O)NCC2(N3CCCCC3)CCCCC2)c1 | inactive: -3.34%
O=[N+]([O-])c1cc([N+](=O)[O-])c(OC2CCCCC2O)c([N+](=O)[O-])c1 (stereo not drawn) | inactive: 3.22%
COc1cc(OC)c(C(=O)NCC2(N(C)C)CCCCC2)cc1OC | inactive: -12.4%
O=C(NCC1(N2CCOCC2)CCCCC1)c1cc(F)c(F)cc1Cl | inactive: -7.59%
O=C(OC1CN2CCC1CC2)c1ccc([N+](=O)[O-])cc1 (stereo not drawn) | inactive: 2.31%
COc1ccc2c(c1O)-c1c(O)c(OC)cc3c1[C@H](C2)[N+](C)(C)CC3.O=[N+]([O-])c1cc([N+](=O)[O-])c([O-])c([N+](=O)[O-])c1[O-] | inactive: 25.5%
O=C(NCC1(N2CCCCC2)CCCCC1)c1cncc(Br)c1 | inactive: -0.586%

SMILES | activity, negative = inhibition
CCCOc1ccc(C(=O)NCC2(N(C)C)CCCCC2)cc1OC | inactive: 0.0361%
COc1ccc(C(=O)NCC2(N3CCCCC3)CCCCC2)cc1 | inactive: 3.43%
CC(C)(C)OC(=O)N1CCC(N(C(=O)c2ccccc2)c2ccc(F)cc2)CC1 | inactive: 3.1%
COc1ccc(C(=O)NCC2(N3CCCCC3)CCCCC2)c(OC)c1OC | inactive: -3.18%
O=C(NCC1(N2CCCCC2)CCCCC1)c1ccc(=O)[nH]c1 | inactive: 4.86%
O=C(NCC1(N2CCCCC2)CCCCC1)c1cccs1 | inactive: -1.58%
CSc1ccccc1C(=O)NCC1(N2CCCCC2)CCCCC1 | inactive: -0.399%
O=C(NCC1(N2CCCCC2)CCCCC1)c1ccc(Cl)nc1 | inactive: -0.39%
Cc1cc(C)cc(N(C(=O)c2ccccc2)C2CCN(C(=O)OC(C)(C)C)CC2)c1 | inactive: 3.21%
O=C(NCC1(N2CCOCC2)CCCCC1)c1cc2ccccc2o1 | inactive: 0.348%
O=C(OC1CN2CCC1CC2)C1c2ccccc2Oc2ccccc21 (stereo not drawn) | inactive: 0.305%
O=C(NCC1(N2CCCCC2)CCCCC1)c1ccc(Cl)s1 | inactive: -5.36%
N#CC1(Nc2ccccc2)CCN(Cc2ccccc2)CC1 | inactive: -4.34%
COc1ccc(Cl)cc1C(=O)NCC1(N2CCOCC2)CCCCC1 | inactive: 9.43%
CCOC(=O)N1CCC(Nc2ccc(OC)cc2)CC1 | inactive: -0.526%
CCOc1ccc(C)cc1CN(CCCl)CCCl | inactive: 1.11%
O=C(NCC1(N2CCCCC2)CCCCC1)c1ccc(F)cc1 | inactive: -2.15%
CCCCOc1ccc(C(=O)NCC2(N3CCOCC3)CCCCC2)cc1 | inactive: -2.63%
CCOC(=O)N1CCC(Nc2ccc(F)cc2)CC1 | inactive: 1.92%
COc1ccc(NC2CCN(CCc3ccccc3)CC2)c(OC)c1 | inactive: -3.79%
COc1cc(C(=O)NCC2(N(C)C)CCCCC2)ccc1OC(F)F | inactive: -0.356%
CCOC(=O)N1CCC(Nc2cccc(C)c2)CC1 | inactive: -3.01%
Cc1ccc(OCC(C)C)c(CN(CCCl)CCCl)c1 | inactive: 14.2%
